In the data set the test system is Tat47-58 peptide (HIV-1). Briefly: EMSA. Particulars: peptide 0.1-1.6 uM, purified recombinant protein.

Take GGCGUCACACCUUCGGGUGAAGUCGCC: for the setting “gel retardation by automated capillary electrophoresis, TK buffer with 0.5 mM MgCl2, printed TAR sequence identical to the 16S A site oligo, label: 5' fluorescein”, the binding result is listed as “binds”.

“GGCGUCACACCUUCGGGUGAAGUCGCC [HIV-1 TAR element RNA oligonucleotide]”: under “TK buffer: 50 mM Tris-HCl pH 7.4, 20 mM KCl, 0.1% Triton X-100, 0.5 mM MgCl2, 12% native gel at 4 C, label: 5' fluorescein and 3' 32P-cytidine bisphosphate”, the binding result is listed as “binds”.

Source of the values: US20040219545.
